A mixed list of measured activities; the numbers were collected in NIAID ChemDB.

Common to all: target-level tests

Fold resistance has wild type as its base. Percent inhibition refers to the dose given; in toxicity tests it is the harm to the cells. Blank or dashed fields: not listed here. ICn is the concentration giving n% inhibition. Two numbers with a dash give a range or band. Conditions beyond the fields shown may differ between rows.

compound,strain or isolate,target,read-out,dose,method,mutations,species,result
CC[C@@H](C=O)NC(=O)[C@@H]1C[C@@H](OCc2ccccc2)CN1C(=O)[C@@H](NC(=O)c1c(-c2c(Cl)cccc2Cl)noc1C)C(C)C,,NS3 protease,Ki,,,,Hepatitis C virus,>100 µM
COc1ccc2c(O[C@@H]3C[C@@H](C(=O)NC4(C(=O)O)CC4)N(C(=O)[C@@H](NC(=O)OC(C)(C)C)C(C)(C)C)C3)cc(-c3ccccc3)nc2c1,,HCV NS3/NS4A protease,IC50,,,,Hepatitis C virus,0.475 µM
O=C(O)[C@H](Cc1ccccc1)N(Cc1cccc(Br)c1)C(=O)COc1ccc(Cl)cc1,,RNA-dependent RNA polymerase,IC50,,,,Hepatitis C virus,>20 µM
CC[C@@H](C=O)NC(=O)[C@@H]1C[C@@H](OCc2ccccc2)CN1C(=O)[C@@H](NC(=O)[C@@H](NC(=O)CCCC(=O)O)C(C)C)C(C)C,,NS3 protease,Ki,,,,Hepatitis C virus,1–100 µM
Cc1ccccc1S(=O)(=O)Nc1cc(-c2cc(F)cc(F)c2)sc1C(=O)O,,NS3 ATPase,IC50,,,,Hepatitis C virus,<5 µM
CC[C@H](NC(=O)[C@H](C(C)C)N(C)C(=O)[C@@H](NC(=O)[C@H](CC(=O)O)NC(=O)[C@@H](N)CCC(=O)O)C(C)C)C(=O)N[C@@H](CS)C(=O)O,,NS3 protease,IC50,,,,Hepatitis C virus,230 µM
O=C(NCc1csc2ccccc12)Nc1cscc1-c1nc(C(=O)O)c(O)c(=O)[nH]1,,HCV polymerase,IC50,,,,Hepatitis C virus,<25 µM
O=C(Nc1ccc2cn[nH]c2c1)c1cc(C2CCNCCN2)c(F)cc1F,,Reverse transcriptase,inhibition,1 µg/mL,,,Hepatitis B virus,82%
CC[C@H](NC(=O)[C@@H]1C[C@@H](OCc2ccccc2)CN1C(=O)[C@@H](NC(=O)[C@@H](NC(=O)c1cnccn1)C(C)C)C(C)C)C(=O)C(F)(F)C(F)(F)F,,NS3 protease,Ki,,,,Hepatitis C virus,1–100 µM
CC(=O)N[C@@H](CC(=O)O)C(=O)N[C@@H](CCC(=O)O)C(=O)N[C@H](C(=O)N[C@@H](CCCCN)C(=O)N[C@@H](CC1CCCCC1)C(=O)N[C@@H](CS)C(=O)O)C(c1ccccc1)c1ccccc1,,HCV NS3 protease,IC50,,,,Hepatitis C virus,>6 µM
O=C(Nc1ccc2[nH]ncc2c1)c1cc(C2CCNCCN2)c(F)cc1F,,Nonstructural protein 5B,inhibition,0.1 µg/mL,,,Hepatitis C virus,0%
O=C(O)c1sc(-c2ccccc2)cc1N(Cc1ccc(C(F)(F)F)cc1)C(=O)C1CCC1,,NS3 ATPase,IC50,,,,Hepatitis C virus,5–20 µM
CC[C@@H](C=O)NC(=O)[C@@H]1C[C@@H](NC(=O)C2CCCCC2)CN1C(=O)[C@@H](NC(=O)[C@@H](NC(=O)c1cnccn1)C(C)C)C(C)C,,NS3 protease,Ki,,,,Hepatitis C virus,>100 µM
COC(=O)c1nc(-c2sccc2NC(=O)C(N)c2ccccc2)[nH]c(=O)c1O,,HCV polymerase,IC50,,,,Hepatitis C virus,<50 µM
CC[C@H](NC(=O)[C@@H]1C[C@@H](OCc2ccc(Cl)c(Cl)c2)CN1C(=O)[C@@H](NC(=O)[C@@H](NC(=O)c1cnccn1)C(C)C)C(C)C)P(=O)(Oc1ccccc1)Oc1ccccc1,,NS3 protease,Ki,,,,Hepatitis C virus,<1 µM
O=C(O)c1nc(-c2sccc2NC(=O)C(c2ccccc2)C2CCCC2)[nH]c(=O)c1O,,HCV polymerase,IC50,,,,Hepatitis C virus,<25 µM
NN1C(=O)/C(=C\c2ccccc2)SC1=S,,NS5B polymerase,IC50,,,,Hepatitis C virus,>30 µM
CC(C)[C@H](NC(=O)[C@H](CC(=O)O)NC(=O)[C@@H](N)CCC(=O)O)C(=O)N[C@H](C(=O)N(C)CC(=O)N[C@@H](CS)C(=O)O)C(C)C,,NS3 protease,IC50,,,,Hepatitis C virus,21 µM
CC(=O)c1ccc(-c2cc(N(C(=O)c3ccc(Cl)cc3Cl)C(C)C)c(C(=O)O)s2)s1,,NS3 ATPase,IC50,,,,Hepatitis C virus,<5 µM
CC[C@H](NC(=O)[C@@H](NC(=O)[C@@H](NC(=O)[C@H](CC(=O)O)NC(=O)[C@H](CCC(=O)O)NC(C)=O)C(C)C)C(C)C)C(=O)N[C@@H](CS)C(=O)O,,HCV NS3 protease,IC50,,,,Hepatitis C virus,2.8 µM
CC(C1CCN(C(=O)OCc2ccccc2)CC1)N(C(=O)c1ccc(Cl)cc1Cl)c1cc(-c2ccccc2)sc1C(=O)O,,NS3 ATPase,IC50,,,,Hepatitis C virus,5–20 µM
CC(=O)N[C@@H](CCC(=O)O)C(=O)N[C@H](C(=O)N[C@@H](CCC(=O)O)C(=O)N[C@@H](CC1CCCCC1)C(=O)N[C@@H](CS)C(=O)O)C(c1ccccc1)c1ccccc1,,HCV NS3 protease,IC50,,,,Hepatitis C virus,1.4 µM
O=C(Nc1cscc1-c1nc(C(=O)O)c(O)c(=O)[nH]1)NS(=O)(=O)c1ccccc1,,HCV polymerase,IC50,,,,Hepatitis C virus,<25 µM
CCOC(=O)c1ccccc1-c1cc(NS(=O)(=O)c2ccccc2C)c(C(=O)O)s1,,NS3 ATPase,IC50,,,,Hepatitis C virus,5–20 µM
CSCC[C@H](N)C(=O)N[C@@H](CCC(=O)O)C(=O)N[C@@H](CCC(=O)O)C(=O)N[C@@H](CS)C(=O)O,,NS3 protease,IC50,,,,Hepatitis C virus,150 µM
NCc1ccc(COC(=O)Nc2ccsc2-c2nc(C(=O)O)c(O)c(=O)[nH]2)cc1,,HCV polymerase,IC50,,,,Hepatitis C virus,<25 µM
Cc1cc(S(=O)(=O)Nc2cc(-c3ccc(Cl)cc3)sc2C(=O)O)c(C)cc1Cl,,NS3 ATPase,IC50,,,,Hepatitis C virus,<5 µM
C=C[C@H]1CC1(NC(=O)[C@@H]1C[C@@H](Oc2cccc3c2CCN(C(C)=O)C3)CN1C(=O)[C@@H](Nc1ccc(C(=O)OC(C)(C)C)cc1)C(C)(C)C)C(=O)O,,HCV NS3/NS4A protease,IC50,,,,Hepatitis C virus,6 µM
O=C(Nc1ccc2cn[nH]c2c1)c1cc(N2CCC(O)CC2)c(F)cc1F,,Nonstructural protein 5B,inhibition,1 µg/mL,,,Hepatitis C virus,55%
O=C(O)c1nc(-c2cccc(OCc3cccc(Cl)c3)c2)[nH]c(=O)c1O,,HCV polymerase,IC50,,,,Hepatitis C virus,<100 µM
CSCC[C@H](NC(=O)[C@H](CCC(=O)O)NC(C)=O)C(=O)N[C@@H](CCC(=O)O)C(=O)N[C@@H](CCC(=O)O)C(=O)N[C@@H](CS)C(=O)O,,HCV NS3 protease,IC50,,,,Hepatitis C virus,21 µM
COc1cccc(S(=O)(=O)NN2C(=O)/C(=C\c3cc(F)c(F)cc3F)SC2=S)c1,,NS5B polymerase,IC50,,,,Hepatitis C virus,≤30 µM
CC[C@H]1CC1(NC(=O)[C@@H]1C[C@@H](OCc2cccc3cccnc23)CN1C(=O)[C@@H](NC(=O)OC(C)(C)C)C1CCCCC1)C(=O)O,,HCV NS3/NS4A protease,IC50,,,,Hepatitis C virus,32 µM
COc1ccc(NC(=O)Nc2cccc(-c3nc(C(=O)O)c(O)c(=O)[nH]3)c2)cc1,,HCV polymerase,IC50,,,,Hepatitis C virus,<100 µM
CC(C)(OC(=O)N[C@H](C(=O)N1C[C@H](OCc2cccc3ccccc23)C[C@H]1C(=O)NC1(C(=O)O)CC1)C1CCCCC1)C(Cl)(Cl)Cl,,HCV NS3/NS4A protease,IC50,,,,Hepatitis C virus,34 µM
O=C1/C(=C\c2ccc(Br)c(Br)c2)SC(=S)N1NS(=O)(=O)c1ccccc1Cl,,NS5B polymerase,IC50,,,,Hepatitis C virus,≤30 µM
CC[C@@H](C)[C@@H](NC(=O)[C@H](CC(=O)O)NC(C)=O)C(=O)N[C@@H](CC(C)C)C(=O)N[C@@H](CCC(=O)O)C(=O)N[C@@H](CC1CCCCC1)C(=O)N[C@@H](CS)C(=O)O,,HCV NS3 protease,IC50,,,,Hepatitis C virus,0.33 µM
CC(C)(C)OC(=O)N[C@H](C(=O)N1C[C@H](Oc2cc(-c3ccccc3)nc3ccc([N+](=O)[O-])cc23)C[C@H]1C(=O)NC1(C(=O)O)CC1)C1CCCCC1,,HCV NS3/NS4A protease,IC50,,,,Hepatitis C virus,2.8 µM
O=C(Nc1cscc1-c1nc(C(=O)O)c(O)c(=O)[nH]1)NS(=O)(=O)c1cccc(C(F)(F)F)c1,,HCV polymerase,IC50,,,,Hepatitis C virus,<25 µM
O=C1/C(=C\c2ccc3c(c2)OC(F)(F)O3)SC(=S)N1NS(=O)(=O)c1ccccc1,,NS5B polymerase,IC50,,,,Hepatitis C virus,≤30 µM
C[C@@]1(O)[C@H](O)[C@@H](COP(=O)(O)OP(=O)(O)OP(=O)(O)O)O[C@@]1(C#N)c1ccc2c(N)ncnn12,2a JFH-1,Nonstructural protein 5B,fold resistance,,radiometric,S282T M289L,Hepatitis C virus,470
CC[C@H](C)[C@H](NC(=O)[C@@H](N)C(c1ccccc1)c1ccccc1)C(=O)N[C@@H](CC1CCCCC1)C(=O)N[C@@H](CS)C(=O)O,,NS3 protease,IC50,,,,Hepatitis C virus,100 µM
CSCC[C@H](NC(C)=O)C(=O)N[C@@H](CCC(=O)O)C(=O)N[C@@H](CCC(=O)O)C(=O)N[C@@H](CS)C(=O)O,,HCV NS3 protease,IC50,,,,Hepatitis C virus,150 µM
O=C(NCCC1=CCCCC1)Nc1ccsc1-c1nc(C(=O)O)c(O)c(=O)[nH]1,,HCV polymerase,IC50,,,,Hepatitis C virus,<25 µM
CN1CCN(c2cc(C(=O)Nc3ccc4[nH]ncc4c3)c(F)cc2F)CC1,,Reverse transcriptase,IC50,,,,Hepatitis B virus,0.01–0.1 µg/mL
O=C(O)[C@H](Cc1ccccc1)N(Cc1ccc(-c2ccc(Cl)c(Cl)c2)o1)C(=O)c1ccc(Cl)cc1Cl,,RNA-dependent RNA polymerase,IC50,,,,Hepatitis C virus,<5 µM
CC[C@H](C)[C@H](NC(=O)[C@H](CCC(=O)O)NC(=O)[C@H](CC(=O)O)NC(C)=O)C(=O)N[C@@H](CCC(=O)O)C(=O)N[C@@H](CC1CCCCC1)C(=O)N[C@@H](CS)C(=O)O,,HCV NS3 protease,IC50,,,,Hepatitis C virus,0.122 µM
C=C[C@H]1CC1(NC(=O)[C@@H]1C[C@@H](Oc2ccnc3cc(OC)ccc23)CN1C(=O)[C@@H](Nc1ccc(C(=O)NC(C)(C)C)cc1)C(C)(C)C)C(=O)O,,HCV NS3/NS4A protease,IC50,,,,Hepatitis C virus,0.045 µM
CC[C@H](C)[C@H](NC(=O)[C@@H](NC(=O)[C@H](CCC(=O)O)NC(C)=O)C(c1ccccc1)c1ccccc1)C(=O)N[C@@H](CC1CCCCC1)C(=O)N[C@@H](CS)C(=O)O,,HCV NS3 protease,IC50,,,,Hepatitis C virus,2.4 µM
CC(C)N(C(=O)C1=CC[C@@H](C)CC1)c1cc(-c2ccccc2)sc1C(=O)O,,NS3 ATPase,IC50,,,,Hepatitis C virus,<5 µM
CC(=O)N[C@@H](CC(=O)O)C(=O)N[C@@H](CC(=O)O)C(=O)N[C@@H](CC(C)C)C(=O)N[C@@H](CCC(=O)O)C(=O)N[C@@H](CC1CCCCC1)C(=O)N[C@@H](CS)C(=O)O,,HCV NS3 protease,IC50,,,,Hepatitis C virus,0.29 µM
COc1cc(C)c(S(=O)(=O)Nc2cc(-c3ccccc3)sc2C(=O)O)c(C)c1C,,NS3 ATPase,IC50,,,,Hepatitis C virus,<5 µM
CC(=O)N[C@@H](CC(=O)O)C(=O)N[C@@H](CCC(=O)O)C(=O)N[C@H](C(=O)N[C@@H](CCC(=O)O)C(=O)N[C@@H](CC1CCCCC1)C(=O)N[C@@H](CS)C(=O)O)C(C)C,,HCV NS3 protease,IC50,,,,Hepatitis C virus,0.33 µM
CCN(C(=O)c1ccc(C)cc1)c1cc(-c2ccccc2)sc1C(=O)O,,NS3 ATPase,IC50,,,,Hepatitis C virus,<5 µM
CC(C)[C@H](NC(=O)[C@H](CC(=O)O)NC(=O)[C@@H](N)CCC(=O)O)C(=O)N[C@H](C(=O)NCC(=O)N[C@@H](CS)C(=O)O)C(C)C,,NS3 protease,IC50,,,,Hepatitis C virus,20 µM
CSCC[C@H](NC(=O)[C@H](CCC(=O)O)NC(=O)CCC(=O)O)C(=O)N[C@@H](CCC(=O)O)C(=O)N[C@@H](CCC(=O)O)C(=O)N[C@@H](CS)C(=O)O,,HCV NS3 protease,IC50,,,,Hepatitis C virus,1.3 µM
O=C(O)[C@H](Cc1ccccc1)N(Cc1cccc(Br)c1)C(=O)c1ccc(Cl)cc1Cl,,RNA-dependent RNA polymerase,IC50,,,,Hepatitis C virus,<5 µM
C=CC(=O)NCC(=O)N1C[C@H](Oc2nccc3ccc(Br)cc23)C[C@H]1C(=O)N[C@]1(C(=O)NS(=O)(=O)C2CC2)C[C@H]1C=C,1b D168V,Nonstructural protein 3/4A,IC50,,FRET,,Hepatitis C virus,1.261 µM
O=C(Nc1ccc2cn[nH]c2c1)c1cc(N2CCNCC2)c(F)cc1F,,Reverse transcriptase,inhibition,0.01 µg/mL,,,Hepatitis B virus,18%
O=C(O)[C@H](Cc1ccccc1)N(Cc1cccc(Br)c1)C(=O)c1ccc(Cl)c(Cl)c1,,RNA-dependent RNA polymerase,IC50,,,,Hepatitis C virus,>20 µM
CSCC[C@H](NC(=O)[C@H](CCC(=O)O)NC(=O)[C@H](CC(=O)O)NC(C)=O)C(=O)N[C@@H](CCC(=O)O)C(=O)N[C@@H](CC1CCCCC1)C(=O)N[C@@H](CS)C(=O)O,,HCV NS3 protease,Ki,,,,Hepatitis C virus,0.18 µM
CCCCS(=O)(=O)NN1C(=O)/C(=C\c2ccc(Cl)c(Cl)c2)SC1=S,,NS5B polymerase,IC50,,,,Hepatitis C virus,≤30 µM
CN1CCNCCC1c1cc(C(=O)Nc2ccc3cn[nH]c3c2)c(F)cc1F,,Reverse transcriptase,inhibition,0.1 µg/mL,,,Hepatitis B virus,33%
CC(=O)N[C@@H](CC(=O)O)C(=O)N[C@@H](CCC(=O)O)C(=O)N[C@H](C(=O)N[C@@H](CCC(=O)O)C(=O)N[C@@H](CC1CCCCC1)C(=O)N[C@@H](CS)C(=O)O)C(c1ccccc1)c1ccccc1,,Full-length NS3,IC50,,,,Hepatitis C virus,0.06847 µM